# Reference: PubChem BioAssay AID2318 (National Center for Advancing Translational Sciences (NCATS), 2010)
# The list shows a part of the results, in another mix than the full data. Inconclusive results are not listed. The source made the active and inactive calls. Calls follow the shape of the full dose curve.
# Experiment: Cycloheximide Counterscreen for Small Molecule Inhibitors of Shiga Toxin (Confirmatory); also: 0% is about no effect
# Conditions: protein synthesis reporter, Shiga toxin assay; at 38.3 µM (top of the series)
compound,measurement,value
O=[N+]([O-])c1cc([N+](=O)[O-])c(-c2ccn[nH]2)s1,activity (activation),inactive: -3.03%
